## Library screen at single concentrations

Results are given as percent effect. How 0% and 100% were set is not recorded. Most values in the screen are low, and negative values occur. This is part of a subset picked to be rich in strong results.

A: 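Whole-cell growth test on Mycobacterium tuberculosis, read after 4 days in a medium based on cholesterol and the lipid DPPC; the read-out is not stated. Concentration: 500 µM. Higher reads as more growth inhibition (inferred: compounds with an IC50 in retests scored well above the rest). Of about 18,000 compounds tested this way, about 900 (5%) reached 50% or more in at least one test.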
B: 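Growth of Mycobacterium tuberculosis over 3 days (7H9 medium with glucose and tyloxapol); the read-out is not stated. Concentration: 500 µM. The record gives no direction; compounds that gave an IC50 in retests scored well above the rest, so higher reads as more growth inhibition. About 18,000 compounds were tested under these conditions; 7.9% (about 1,400) showed 50% or more at least once.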

- CC1COc2ccccc2N1C(=O)c1cnsn1 (stereo not drawn) | B: -28.11%
- COc1ccc2cc(S(N)(=O)=O)ccc2c1 | B: 23.31%
- CCSc1cc(Cl)ccc1C(=O)N[C@H](C)C(=O)NC | B: 11.97%
- COC(=O)N1CCCC(C(=O)NCc2c[nH]nc2C)C1 (stereo not drawn) | B: 14.07%
- Cc1cncc(C(=O)OC(C)CCN2CCCC2=O)c1 (stereo not drawn) | A: -1.608%
- COc1ccc(CN2CCN(C)C(CCO)C2)cc1 (stereo not drawn) | A: 10.37%
- CC(C)CCNC(=O)Nc1ccc(-n2cccn2)nc1 | A: 63.13%; B: 55.13%
- CNC(=O)NC(=O)CNc1cc(F)cc(F)c1 | A: -23.63%
- CC(=O)NC(C)C(=O)Nc1ccccn1 (stereo not drawn) | A: 0.4798%
- Cc1ccc(C(=O)NCCNS(=O)(=O)C(C)C)cc1F | B: 63.72%
- CC(C)(C)OC(=O)N1CCN(C(N)=O)CC1 | B: 0.8513%
- COCCC1(C(=O)N(C)CC2CCCCO2)CCC1 (stereo not drawn) | A: -16.29%
- CC(NS(C)(=O)=O)c1nc(C2CC2)n[nH]1 (stereo not drawn) | B: 9.403%
- CCc1nnc(CN2CCOC3(CCCC3)C2)o1 | B: 58.36%
- Cc1cc(N2CCC3(CC2)OCCO3)n2ncnc2n1 | A: -21.6%
- Cc1ccc2c(c1)CC(=O)N2C | B: 4.351%
- Cc1cccc2c1N(C(=O)c1ccccn1)CCC2 | B: -10.91%
- CNC(=O)c1ccc(N2CCOCC2)c(F)c1 | B: -13.28%
- COCCCC(=O)NC1CCc2nccn2C1 (stereo not drawn) | A: -20.44%
- O=C1NCCN(CCn2cncn2)C1c1cccs1 (stereo not drawn) | A: -19.59%
- Cc1cccc2[nH]c(CO)cc12 | A: -3.611%
- COc1ccc(C(=O)C2CCNCC2)cc1OC | B: 13.06%
- CN(C)C(CNC(=O)CN1CCCC1=O)c1ccco1 (stereo not drawn) | B: 7.436%
- CN(Cc1ncc[nH]1)C(=O)Cc1cc(F)cc(F)c1 | B: 7.901%
- CNc1ccnc(C(N)=O)c1 | B: -11.02%
- Cn1cc(CNCC2COc3ccccc3O2)cn1 (stereo not drawn) | B: 29.09%
- CC(=O)Nc1ccc(CC(=O)N2CCOCC2)cc1 | B: 6.924%
- Cc1ccc(C)c(OCC(=O)NCC[S+](C)[O-])c1 (stereo not drawn) | B: 13.75%
- CC[C@H](N)C(=O)N(CC)C(C)c1ccc(F)cc1 (stereo partly drawn) | B: 37.74%
- CC(Sc1nnc(NCC(F)(F)F)s1)C(N)=O (stereo not drawn) | A: -8.578%; B: 13.8%
- CN(Cc1cccs1)C(=O)CCCNC(=O)C(C)(C)C | B: 45.37%
- NCCC1CN(Cc2ccccc2)CCO1 (stereo not drawn) | A: 8.422%; B: 23.45%
- CC(=O)c1c(C)cc(C)nc1C | B: 18.72%
- O=C(N[C@H]1CCCNC1)c1cccc(F)c1Cl | B: 11.84%
- CC(C1CC1)N(CCC#N)C(=O)N(C)C (stereo not drawn) | B: 2.462%
- Cc1ccc(CCNC(=O)NC(CO)CC(C)C)cn1 (stereo not drawn) | A: 30.78%; B: -6.843%
- CC1CCCN1CC(=O)Nc1ncccc1O (stereo not drawn) | B: 2.205%
- CNS(=O)(=O)C1CCCN(c2ncc(Br)cc2C)C1 (stereo not drawn) | B: 2.266%
- CC(O)(CNc1ncccc1F)C1CCCC1 (stereo not drawn) | A: 65.12%; B: 65.78%
- CCC(=O)Nc1cccc(C(=O)Nc2cc(C)on2)c1 | B: 4.018%
- Cc1nnc(NC(=O)NC2CCNCC2)s1 | A: 0.8626%; B: 16.28%
- O=C1Nc2ccccc2C1O (stereo not drawn) | A: 4.302%; B: 0.1265%
- NCCc1nc2cc(F)ccc2s1 | B: 14.3%
- Cc1noc(C(C)N2CCN(C(C)C)CC2)n1 (stereo not drawn) | B: 1.301%
- COCC(C)(C)NC(=O)Cc1cccc(O)c1 | A: 4.35%
- NCc1ccncc1OCC(F)F | A: 5.033%
- CNC(=O)C1(C)CCN(C(=O)c2n[nH]c(N)c2Cl)CC1 | B: 7.64%
- C=C(C)COC(=O)c1ccc(-n2cncn2)cc1C | B: 53.45%

From ChEMBL document CHEMBL3988442, “University of Dundee, Small-Polar-MMV Screening Library” (2021).